# Structures can show the parent of a compound that is named as a salt.
# System: influenza A virus
smiles,measurement,setting,value
"CC(N)C12CC3CC(CC(C3)C1)C2 (centres unmarked) [Remantadine, alfa-methyl-1-adamantanemethylamine hydrochloride]",passes from which resistance occurs,influenza A virus in a cell culture,2-3 passes
same,virus resistance to the preparation,"passivating influenza A virus in a cell culture in presence of the drug, preparation of the invention: 6 passes",there occur the resis-

# Reference: patent publication US5198552A, “Indole derivative having antiviral, interferon-inducing and immunomodulatory effects” (priority 1991, dated 1993)
